Mutational interference map of HIV-1 RNA dimerization

The measurements come from Ye et al. 2022 (doi:10.1038/s41594-022-00746-2).

Sequence of the HIV-1 NL4-3 5' RNA, positions 1 to 437, as numbered in the source:
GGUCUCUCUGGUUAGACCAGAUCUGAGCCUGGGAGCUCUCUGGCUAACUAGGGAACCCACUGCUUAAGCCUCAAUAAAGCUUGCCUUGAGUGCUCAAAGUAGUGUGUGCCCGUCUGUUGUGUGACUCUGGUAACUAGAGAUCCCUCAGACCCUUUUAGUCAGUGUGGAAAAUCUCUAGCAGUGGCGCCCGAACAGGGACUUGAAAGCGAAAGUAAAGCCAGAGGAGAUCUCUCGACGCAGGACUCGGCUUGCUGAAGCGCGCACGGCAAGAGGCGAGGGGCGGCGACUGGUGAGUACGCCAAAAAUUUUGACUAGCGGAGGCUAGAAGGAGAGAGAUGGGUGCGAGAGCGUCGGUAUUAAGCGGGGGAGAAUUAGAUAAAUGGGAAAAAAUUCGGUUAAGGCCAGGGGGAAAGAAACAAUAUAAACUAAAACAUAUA

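Randomly mutated transcripts starting with one, two or three G (1G, 2G, 3G), capped or uncapped, were folded for 30 min at 37 °C. Monomer and dimer bands were cut from native gels after folding in high salt (300 mM KCl, 5 mM MgCl2) or low salt (40 mM KCl, 0.1 mM MgCl2). Mutation frequencies in the two bands give Kdimer.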

Values are log2 Kdimer, the median over the changes at each position: higher means that changes there hinder dimer formation, below 0 that they favour it. One numbering serves 1G, 2G and 3G. A position is written with its base where known. Bases beyond 437 are not listed in the source.

| position | 1G capped high-salt | 2G uncapped low-salt | 1G uncapped low-salt |
|---|---|---|---|
| A34 | 0.08 | 0.06 | -0.30 |
| G42 | -0.58 | -0.41 | -0.08 |
| C80 | -0.16 | -0.08 | 0.07 |
| C150 | 0.06 | 0.52 | 0.32 |
| A170 | 0.11 | 0.07 | 0.05 |
| G178 | 0.11 | 0.21 | 0.15 |
| G197 | 0.11 | 0.55 | 0.39 |
| A215 | -0.27 | -0.21 | -0.23 |
| G254 | 2.13 | 2.17 | 2.11 |
| G261 | 4.35 | 3.73 | 4.47 |
| G278 | 0.38 | 0.40 | 0.43 |
| C281 | 0.88 | 0.47 | 0.37 |
| U288 | -0.25 | -0.12 | 0.03 |
| U291 | -0.20 | -0.32 | -0.29 |
| A319 | 0.13 | 0.18 | 0.05 |
| G365 | 0.06 | 0.16 | 0.01 |
| U372 | 0.06 | -0.03 | -0.05 |
| A411 | 0.00 | 0.16 | 0.17 |
| A416 | 0.10 | 0.07 | 0.13 |
| A435 | 0.08 | 0.00 | 0.01 |
| 438 | 0.11 | -0.01 | -0.02 |
| 448 | 0.20 | 0.06 | 0.03 |
| 454 | -0.09 | -0.04 | 0.09 |
| 467 | -0.01 | 0.02 | -0.05 |
| 480 | -0.08 | -0.03 | 0.08 |
| 496 | 0.07 | 0.04 | -0.03 |
| 515 | 0.00 | -0.01 | 0.09 |

The last 2 entries again:

position,1G capped high-salt,2G uncapped low-salt,1G uncapped low-salt
496,0.07,0.04,-0.03
515,0.00,-0.01,0.09